## Results of single-concentration screens

Data taken from ChEMBL document CHEMBL3988442, “University of Dundee, Small-Polar-MMV Screening Library” (2021).

Each number is a percent effect as filed.
How 0% and 100% were set is not recorded. Most values in the screen are low, and negative values occur.
The entries come from a sample that favours strong results.
Two or more numbers in one place are separate tests of the same structure; such repeats can differ widely.

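Whole-cell growth test on Mycobacterium tuberculosis, read after 3 days in glucose-containing 7H9 medium; the read-out is not stated. Tested at 50 µM. The record gives no direction; compounds that gave an IC50 in retests scored well above the rest, so higher reads as more growth inhibition. Size under these conditions: about 69,000 compounds, about 760 of them at 50% or above in at least one test.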

SMILES	Percent Effect
COc1ccc(C2SCC(=O)N2c2ncc(C)s2)cc1 (stereo not shown)	35.81 and 40.39
CN1CCCC1c1cccc(Cc2ccccc2F)n1 (stereo not shown)	53.31
c1ccc(Cc2cccc(C3CCCN3C3CCOCC3)n2)cc1 (stereo not shown)	61.76
CC(C)N(C)S(=O)(=O)N(Cc1cccs1)Cc1cccs1	5.986 and 42.33
c1nc(CCNc2nc(C3CC3)nc3c2CCNCC3)c[nH]1	21.08 and 15.54
CCS(=O)(=O)CCNC1CCN(c2nc3ccc(Cl)cc3s2)CC1	41.84
Cc1nc(CNCC2CN(C3CC3)CCO2)cs1 (stereo not shown)	-16.44
CCC1CN(CCCNS(C)(=O)=O)c2ccccc2O1 (stereo not shown)	13.12 and 0.3696
COC(=O)c1ccc(C(=O)NCc2ccc(Br)cc2)cn1	97.67
Cc1ccc(NC2CCN(C(=O)C(C(C)C)n3cncn3)CC2)nn1 (stereo not shown)	7.513 and -5.027
CC(C)Cn1ccc2c(NC(=O)c3n[nH]c4c3CCC4)cccc21	23.44
O=c1c2sccc2nc2n1CCN(Cc1cccs1)CC2	28.36
Cc1noc(C)c1C(=O)NCCc1cccs1	9.474 and -6.475
CC(C)c1noc(CN(C)C(=O)c2ncn[nH]2)n1	-28.26
COCCC(=O)N1CCC(Nc2ncc(Cl)cn2)CC1	13.09
Cn1c(C2CC2)nc2cc(NC(=O)C3CCOC3)ccc21 (stereo not shown)	24.21
Cc1ccccc1OCC(O)CN1CCC(Cn2cccn2)CC1 (stereo not shown)	2.08
c1cnnc(N2CCCC(NCc3nnc(-c4ccco4)o3)C2)c1 (stereo not shown)	-19.93
CS(=O)(=O)Nc1cccc(C(=O)Nc2ccc3c(c2)C(=O)NC3)c1	-9.848
Cc1ccc(C(=O)N2CC(Oc3ccccc3C)C2)s1	81.12
COc1ccc(-c2nc(CN3CCN(CCO)CC3)co2)cc1	-3.717
c1ccc(Cc2noc(CN3CCCC3Cn3cccn3)n2)cc1 (stereo not shown)	50.7
CN(Cc1cccc(C(F)(F)F)c1)Cc1nc(-c2cnccn2)no1	11.52
Cc1nccn1CCCn1cncc1-c1ccc2c(c1)CC(C)N2C.Cl (stereo not shown)	21.81
CC(O)CN1CCN(C(=O)c2ccc(Br)o2)CC1 (stereo not shown)	-9.381
O=C(c1cc(-c2ccco2)cs1)N1CCOCC1	-0.1406
CN(C)c1nc2c(c(N3CCc4c(c(CO)nn4C)C3)n1)CCNC2	-52.64
COCc1nc(N(C)C)ncc1C(=O)Nc1ccc(Cl)cc1	3.728
O=C(NCCn1ccnc1)c1ccn(-c2ccc(F)cc2)n1	-7.337
NCC1CCN(c2nc(C3CCCC3)nc3c2CCNCC3)C1 (stereo not shown)	37.66
Cc1cc(Cc2cccc(C(F)(F)F)c2)cc(C2CCCNC2)n1 (stereo not shown)	69.04
O=C(Nc1cccnn1)NC(CCCO)c1ccccc1 (stereo not shown)	4.339
c1ccc(CCN2CCN(c3ccc4nncn4n3)CC2)cc1	50.05
NC(=O)Cn1ccnc1C1CCCN(Cc2ccccc2OC(F)F)C1 (stereo not shown)	-4.745 and 2.372
N#Cc1ccsc1NC(=O)CN1CCn2c(nnc2C2CC2)C1	52.39
CS(=O)(=O)c1ccc(Cl)c(C(=O)NCCC2=CCCCC2)c1	-57.15
CCc1cc(N(C)Cc2ccno2)n2nc(C)c(C)c2n1	10.4
CCC[C@H]1CN(S(=O)(=O)N(C)Cc2ccccc2)C[C@@H]1N	22.58
Cc1cc(NCCO)nc(N2CCC(Cc3ccccc3)CC2)c1C#N.O=C(O)C(=O)O	7.291
O=C1C(n2nnc(-c3cccs3)n2)CCN1CC(F)(F)F (stereo not shown)	38.14
O=C(O)C(=O)O.c1cncc(-c2noc(C3CN(Cc4cccs4)C3)n2)c1	19.42 and 20.97
COCC(=O)NCCc1ccc(I)s1	53.21
CCN(CC)CCNc1nc(C(C)C)nc2c(C)nn(CC)c12	25.29
O=C(CCc1ccco1)Nc1ccc(Br)cn1	27.81
COc1coc(CN2CCCC(CCc3ccc(F)c(F)c3)C2)cc1=O (stereo not shown)	48.41 and 49.48
CS(=O)(=O)CCSc1nnc(Cc2ccccc2F)o1	29.31
CCN(C)C(=O)C1(c2ccc(F)cc2F)CCC1	-19.09
Cc1nc2c(cc1C(=O)O)CCN(Cc1ccsc1)CC2.O=C(O)C(F)(F)F.O=C(O)C(F)(F)F	-18.9
CNC(=O)CS(=O)(=O)Cc1cc(Cl)c2c(c1)OCCO2	4.718
CSC(C)C(=O)Nc1ccnn1-c1ccccc1C (stereo not shown)	0.2992 and -16.88
COC(=O)COc1ccc(-c2noc(C3CCCO3)n2)cc1 (stereo not shown)	95.14
c1cc(-c2noc([C@@H]3Cc4nc[nH]c4CN3)n2)ccn1	-35.96 and 2.394
CCNC(=O)C1CCCN(c2cccc(C(F)(F)F)n2)C1 (stereo not shown)	37.08
Cc1cc(-c2cnc(NCc3cccnc3)nc2C(C)C)on1	14.28
O=C(NCCc1cccc(Cl)c1)C1CCOCC1	2.885 and -11.89
COCCOCC(=O)N1CCc2cc(Cl)cc(Cl)c2C1	25.03
Cc1cnn(CC2CCCN2Cc2nccn2C)c1 (stereo not shown)	25.28
CN(Cc1cccs1)S(=O)(=O)c1ccc(C(F)(F)F)nc1	52.46
Cc1cc(N2CCCC2)c(C#N)c(C)n1	8.75
FC1(F)CCN(Cc2ccncc2)CC12CCN(c1cccnc1)C2.O=C(O)C(F)(F)F.O=C(O)C(F)(F)F.O=C(O)C(F)(F)F (stereo not shown)	0.7862
CN(CC(=O)N1CCCC1)C(=O)c1ccccc1F	-1.578 and 8.989
CCc1ccc(C(=O)N2CCN(c3nc(C)cc(OC)n3)CC2)o1	53.67
COCc1cc(N2CCc3onc(-c4cccc(OC)c4)c3C2)ncn1	-7.941
COc1cc2cc3c(nc2cc1OC)OCCN(Cc1ccco1)C3	6.118
O=C1N(Cc2ccc(F)c(F)c2)CCCC1(O)CNCc1ncc[nH]1 (stereo not shown)	-7.36
CCCc1nc(C)cc(N2CCC3(CCC(=O)N(CCOC)C3)CC2)n1	15.24
Cc1cc2c(=O)n3c(nc2s1)CCN(C(=O)c1sc(C)nc1C)CC3	57.14
COc1ccc(CS(=O)(=O)CC(=O)NCC2CC2)cc1F	11.13 and 9.967
[H][C@@]12CCC(=O)N(CCc3ccccc3)[C@]1([H])CCN(Cc1cnn(C)c1)C2	-8.181
COCc1n[nH]c2c1CN(C(=O)c1ccncc1)C2.O=C(O)C(F)(F)F	36.56 and 0.3924
CCc1c(C(=O)NCC2CCS(=O)(=O)C2)cnn1-c1ccc(C)cc1 (stereo not shown)	3.03

Repeated from the top, 5 entries:

For COc1ccc(C2SCC(=O)N2c2ncc(C)s2)cc1 (stereo not shown) the result was 35.81% and 40.39%.
For CN1CCCC1c1cccc(Cc2ccccc2F)n1 (stereo not shown) the result was 53.31%.
For c1ccc(Cc2cccc(C3CCCN3C3CCOCC3)n2)cc1 (stereo not shown) the result was 61.76%.
For CC(C)N(C)S(=O)(=O)N(Cc1cccs1)Cc1cccs1 the result was 5.986% and 42.33%.
For c1nc(CCNc2nc(C3CC3)nc3c2CCNCC3)c[nH]1 the result was 21.08% and 15.54%.